Assay results taken from publication PMC3872143.

Tested on: NNC(=O)c1ccncc1
Test: purified protein

Mycobacterium tuberculosis catalase-peroxidase (KatG) (Mycobacterium tuberculosis H37Rv)
Km: 192 ± 8 µM | Vmax: 1.52 µM/min
